Anti-infective test results gathered from many reports (values: NIAID ChemDB through PubChem).

All rows: whole-cell or culture tests; organism: HIV-1; method: p24; endpoint: EC50

Lines come from different laboratories, so protocols vary. An empty or dashed field is not shown. ECn is the concentration giving n% inhibition of infection, replication or growth.

smiles	cells	strain or isolate	changes	value
O=C(O)P(=O)(O)O	PBMC	7253 CLADE A CLADE A	-	16.1 µM
Cc1cn([C@H]2C[C@H](N=[N+]=[N-])[C@@H](CO)O2)c(=O)[nH]c1=O	MT-4	263	-	0.02 µM
O=c1[nH]cnc2c1ncn2[C@H]1CC[C@@H](CO)O1	MT-2	-	RT-delta67 T69G	0.256 µM
CN(C)c1ccc(-n2nnnc2SCC(=O)Nc2ccccc2Cl)c2ccccc12	MT-4	-	-	<10 µM
CC(C)(C)C(=O)OCOP(=O)(COCCn1cnc2c(N)ncnc21)OCOC(=O)C(C)(C)C	PBMC	G3 R5 subtype G/- (env/gag)	RT-V35T E40D K173T R211K L214F	4.8 µM
Cc1cc(C)c(-n2nnnc2SCC(=O)Nc2cccc(F)c2C#N)c(C)c1	MT-4	-	-	<10 µM
O=C1N(Cc2ccc(CO)cc2)[C@H](Cc2ccccc2)[C@H](O)[C@@H](O)[C@@H](Cc2ccccc2)N1Cc1ccc(CO)cc1	PBMC	Y clinical isolate	-	0.04 µM
CC(C)CN(C[C@@H](O)[C@H](Cc1ccccc1)NC(=O)[C@H](CC(N)=O)NC(=O)c1ccc2ccccc2n1)C(=O)NC(C)(C)C	MT-4	NL4-3	PR-L10R M46I L63P V82T I84V	<1.5 µM
CCC[C@@]1(CCc2ccccc2)CC(O)=C([C@H](CC)c2cccc(NS(=O)(=O)c3ccc(C(F)(F)F)cn3)c2)C(=O)O1	PBMC	Isolate N. Amer 6	-	<0.12 µM
Cc1cc(C)c(-n2nnnc2SCC(=O)Nc2ccccc2C#N)c(C)c1	MT-4	-	-	<10 µM
COC(=O)[C@H](C)NP(=O)(OC[C@@H]1C=C[C@H](n2cc(C)c(=O)[nH]c2=O)O1)Oc1ccc(Br)cc1	PBMC	T156-3 Clinical isolate ZDV-resistant	RT-M41L E44D D67N T69D L210W T215Y	0.0033 µM
Cc1cn([C@H]2C[C@H](N=[N+]=[N-])[C@@H](CO)O2)c(=O)[nH]c1=O	PBMC	X267-1 NRTI resistant	RT-M41L L74V L210W T215Y	0.6 µM
Cc1cn([C@H]2C[C@H](N=[N+]=[N-])[C@@H](CO)O2)c(=O)[nH]c1=O	PBMC	G890-1 Clinical isolate ZDV-resistant	RT-K20R M41L D67N T69N K70R L210W T215Y	>3.2 µM
O=C1N(Cc2ccc(CO)cc2)[C@H](Cc2ccccc2)[C@H](O)[C@@H](O)[C@@H](Cc2ccccc2)N1Cc1ccc(CO)cc1	MT-4	NL4-3	PR-L10R L63P	<0.2 µM
COC(=O)[C@H](C)NP(=O)(OC[C@@H]1C=C[C@H](n2cc(C)c(=O)[nH]c2=O)O1)Oc1ccc(Br)cc1	PBMC	S762-4 NRTI resistant	RT-M41L T215Y	0.008 µM
CC(C)OC(=O)OCOP(=O)(CO[C@H](C)Cn1cnc2c(N)ncnc21)OCOC(=O)OC(C)C	MT-2	IIIB	-	0.007 µM
Cc1cn([C@H]2C=C[C@@H](CO)O2)c(=O)[nH]c1=O	MT-2	RT Δ.67 T69G K103N	1 (Δ.67+T69G+K103N)	0.219 µM
COc1ccccc1NC(=O)CSc1nnnn1-c1cccc2ccccc12	MT-4	-	-	<10 µM
Cc1cn([C@H]2C[C@H](N=[N+]=[N-])[C@@H](CO)O2)c(=O)[nH]c1=O	PBMC	472 clinical isolates AZT-resistant	-	<1.4 µM
CC(C)c1nc(CN(C)C(=O)N[C@H](C(=O)N[C@@H](Cc2ccccc2)C[C@H](O)[C@H](Cc2ccccc2)NC(=O)OCc2cncs2)C(C)C)cs1	MT-4	NL4-3	PR-D30N N88D	<0.01 µM